# According to publication PMC7667638 (Journal of Medicinal Chemistry, 2020):
# Chains of the proteins cited; added tags and fusions are not shown. Residues count along the entry.
# UniProt P35499, whole entry: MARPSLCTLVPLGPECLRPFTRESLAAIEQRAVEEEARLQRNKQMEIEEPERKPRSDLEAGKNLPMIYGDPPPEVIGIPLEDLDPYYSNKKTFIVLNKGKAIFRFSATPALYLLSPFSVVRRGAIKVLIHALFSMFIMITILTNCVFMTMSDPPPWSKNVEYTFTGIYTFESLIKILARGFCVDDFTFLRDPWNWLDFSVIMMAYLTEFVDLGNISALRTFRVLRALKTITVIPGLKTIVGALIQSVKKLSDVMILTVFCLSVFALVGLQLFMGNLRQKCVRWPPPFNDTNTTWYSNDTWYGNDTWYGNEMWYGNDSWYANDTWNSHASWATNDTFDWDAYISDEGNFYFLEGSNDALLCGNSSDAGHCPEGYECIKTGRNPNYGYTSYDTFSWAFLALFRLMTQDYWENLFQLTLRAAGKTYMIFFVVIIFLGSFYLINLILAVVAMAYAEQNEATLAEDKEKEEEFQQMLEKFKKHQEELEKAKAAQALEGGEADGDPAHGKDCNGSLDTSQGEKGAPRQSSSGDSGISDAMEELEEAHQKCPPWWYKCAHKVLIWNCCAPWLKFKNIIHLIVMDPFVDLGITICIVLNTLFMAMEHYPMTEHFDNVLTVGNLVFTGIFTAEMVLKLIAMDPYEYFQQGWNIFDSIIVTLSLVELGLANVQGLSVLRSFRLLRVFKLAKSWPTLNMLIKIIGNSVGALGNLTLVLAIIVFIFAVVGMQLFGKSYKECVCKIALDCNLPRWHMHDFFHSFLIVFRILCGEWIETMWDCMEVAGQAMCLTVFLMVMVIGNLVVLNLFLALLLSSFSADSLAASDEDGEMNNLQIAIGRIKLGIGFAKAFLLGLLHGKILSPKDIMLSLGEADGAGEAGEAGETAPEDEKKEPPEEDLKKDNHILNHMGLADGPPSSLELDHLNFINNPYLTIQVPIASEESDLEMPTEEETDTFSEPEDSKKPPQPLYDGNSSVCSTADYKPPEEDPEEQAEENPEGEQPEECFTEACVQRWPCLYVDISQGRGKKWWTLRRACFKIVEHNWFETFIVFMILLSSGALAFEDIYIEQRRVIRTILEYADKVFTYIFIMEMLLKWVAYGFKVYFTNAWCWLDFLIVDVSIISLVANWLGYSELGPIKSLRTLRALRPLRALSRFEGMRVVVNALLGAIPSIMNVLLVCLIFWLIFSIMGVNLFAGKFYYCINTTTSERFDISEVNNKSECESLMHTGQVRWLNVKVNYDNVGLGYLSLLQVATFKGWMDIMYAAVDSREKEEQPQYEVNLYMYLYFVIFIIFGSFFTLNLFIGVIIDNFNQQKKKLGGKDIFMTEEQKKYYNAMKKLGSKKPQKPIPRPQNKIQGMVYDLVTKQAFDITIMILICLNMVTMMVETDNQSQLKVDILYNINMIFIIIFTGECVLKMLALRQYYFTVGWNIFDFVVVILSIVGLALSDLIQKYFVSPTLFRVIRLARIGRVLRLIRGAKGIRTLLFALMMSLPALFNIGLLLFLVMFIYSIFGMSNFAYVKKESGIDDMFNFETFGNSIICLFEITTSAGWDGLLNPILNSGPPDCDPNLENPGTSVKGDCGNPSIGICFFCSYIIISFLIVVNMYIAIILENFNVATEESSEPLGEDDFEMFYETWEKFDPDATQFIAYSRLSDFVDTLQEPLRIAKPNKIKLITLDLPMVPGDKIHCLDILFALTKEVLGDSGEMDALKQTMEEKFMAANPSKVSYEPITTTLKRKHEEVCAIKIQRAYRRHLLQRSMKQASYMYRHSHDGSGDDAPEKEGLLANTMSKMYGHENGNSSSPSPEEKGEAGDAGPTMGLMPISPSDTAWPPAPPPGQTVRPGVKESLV
# UniProt Q15858, whole entry: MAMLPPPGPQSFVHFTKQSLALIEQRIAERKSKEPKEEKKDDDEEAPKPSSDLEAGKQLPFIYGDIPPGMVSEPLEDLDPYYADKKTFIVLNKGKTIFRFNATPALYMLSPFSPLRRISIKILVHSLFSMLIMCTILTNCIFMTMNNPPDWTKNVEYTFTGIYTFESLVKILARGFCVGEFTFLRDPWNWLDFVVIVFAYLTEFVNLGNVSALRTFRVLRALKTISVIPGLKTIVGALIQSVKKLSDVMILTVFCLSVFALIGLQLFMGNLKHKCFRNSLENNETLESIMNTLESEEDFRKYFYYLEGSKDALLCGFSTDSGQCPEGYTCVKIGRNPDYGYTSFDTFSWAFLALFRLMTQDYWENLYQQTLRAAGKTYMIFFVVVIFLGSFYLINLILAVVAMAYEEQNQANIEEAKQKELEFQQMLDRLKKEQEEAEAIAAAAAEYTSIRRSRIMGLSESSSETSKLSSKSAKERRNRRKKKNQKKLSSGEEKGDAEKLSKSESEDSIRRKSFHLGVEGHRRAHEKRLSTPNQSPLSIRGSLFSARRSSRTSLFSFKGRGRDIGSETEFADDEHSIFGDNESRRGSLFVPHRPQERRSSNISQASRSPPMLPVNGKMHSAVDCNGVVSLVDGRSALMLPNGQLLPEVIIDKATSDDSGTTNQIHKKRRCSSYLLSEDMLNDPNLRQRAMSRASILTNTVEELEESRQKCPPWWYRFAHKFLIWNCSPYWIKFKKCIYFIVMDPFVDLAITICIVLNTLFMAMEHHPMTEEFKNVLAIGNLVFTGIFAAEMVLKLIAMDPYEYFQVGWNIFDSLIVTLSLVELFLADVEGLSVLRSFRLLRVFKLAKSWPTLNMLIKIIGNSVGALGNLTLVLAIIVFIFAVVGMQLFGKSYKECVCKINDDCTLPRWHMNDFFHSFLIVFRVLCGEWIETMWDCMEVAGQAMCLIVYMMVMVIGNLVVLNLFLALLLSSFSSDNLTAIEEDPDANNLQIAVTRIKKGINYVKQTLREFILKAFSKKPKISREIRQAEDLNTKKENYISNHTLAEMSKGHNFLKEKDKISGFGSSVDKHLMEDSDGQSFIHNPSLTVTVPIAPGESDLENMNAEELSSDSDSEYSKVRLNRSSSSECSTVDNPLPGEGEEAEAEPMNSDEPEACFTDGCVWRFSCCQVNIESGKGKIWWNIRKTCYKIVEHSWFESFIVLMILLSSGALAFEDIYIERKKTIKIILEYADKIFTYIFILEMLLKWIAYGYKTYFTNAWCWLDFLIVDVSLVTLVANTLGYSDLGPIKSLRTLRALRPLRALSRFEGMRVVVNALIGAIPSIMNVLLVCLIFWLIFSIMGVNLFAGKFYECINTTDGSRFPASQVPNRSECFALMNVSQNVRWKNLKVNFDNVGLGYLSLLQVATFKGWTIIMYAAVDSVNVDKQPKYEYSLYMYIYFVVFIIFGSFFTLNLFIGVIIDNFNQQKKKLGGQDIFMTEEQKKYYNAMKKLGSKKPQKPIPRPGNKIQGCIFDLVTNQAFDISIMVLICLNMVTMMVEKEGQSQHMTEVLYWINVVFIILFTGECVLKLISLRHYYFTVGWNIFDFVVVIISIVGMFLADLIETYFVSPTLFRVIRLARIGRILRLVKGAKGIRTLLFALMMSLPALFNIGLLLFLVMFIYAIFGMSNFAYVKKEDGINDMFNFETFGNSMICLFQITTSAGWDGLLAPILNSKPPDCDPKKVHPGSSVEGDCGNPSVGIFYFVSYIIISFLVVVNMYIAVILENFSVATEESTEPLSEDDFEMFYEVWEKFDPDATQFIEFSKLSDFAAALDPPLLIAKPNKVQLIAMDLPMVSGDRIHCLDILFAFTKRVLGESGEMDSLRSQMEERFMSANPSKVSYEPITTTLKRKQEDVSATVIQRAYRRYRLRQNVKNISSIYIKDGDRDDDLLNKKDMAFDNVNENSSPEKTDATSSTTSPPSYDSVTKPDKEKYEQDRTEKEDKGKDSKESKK
# UniProt Q07699, 19-218 partner limits assumed: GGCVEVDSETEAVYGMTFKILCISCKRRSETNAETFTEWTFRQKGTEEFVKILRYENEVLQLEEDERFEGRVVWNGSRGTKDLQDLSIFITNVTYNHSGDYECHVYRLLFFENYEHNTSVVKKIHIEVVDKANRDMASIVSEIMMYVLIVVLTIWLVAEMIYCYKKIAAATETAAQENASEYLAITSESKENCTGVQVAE
# Experiments:
# [1] = molecular target: hNaV1.4 (Homo sapiens, UniProt P35499); assay: automated whole-cell patch-clamp (QPatch 16X), concentration–response inhibition of Na+ currents; type: cell-based
# [2] = molecular target: hNaV1.7 (Homo sapiens, UniProt Q15858); assay: as above; type: cell-based; details: ↑ fold increase in IC50 relative to ligand 1
smiles,measurement,setting,value
C#CC[C@H](N)C(=O)NCCOCCOCCOCCOCCC(=O)NCCOCCOCCOCCOCCC(=O)NCCOCCOCCOCCOCCC(=O)NCCOCCOCCOCCOCCC(=O)N/N=C/C(=O)NCC(=O)N[C@H]1CSSC[C@@H]2NC(=O)[C@@H]3CSSC[C@@H](C(=O)N[C@@H](CCCCN)C(=O)N[C@@H](Cc4c[nH]c5ccccc45)C(=O)N[C@@H](CCC(N)=O)C(=O)N[C@H](C(N)=O)[C@@H](C)CC)NC(=O)[C@H](Cc4c[nH]c5ccccc45)NC(=O)[C@H](CCCNC(=N)N)NC(=O)[C@H]([C@@H](C)O)NC(=O)[C@H](CCCCN)NC(=O)[C@H](CCCNC(=N)N)NC(=O)[C@H](CO)NC(=O)[C@H](CSSC[C@H](NC(=O)[C@H](C)NC(=O)[C@H](CCCCN)NC(=O)[C@H](Cc4ccccc4)NC(=O)[C@H]([C@@H](C)CC)NC(=O)CNC(=O)[C@H](CC(C)C)NC1=O)C(=O)N[C@@H](CC(N)=O)C(=O)N1CCC[C@H]1C(=O)N[C@@H](CO)C(=O)N[C@@H](CC(N)=O)C(=O)N[C@@H](CC(=O)O)C(=O)N[C@@H](CCC(N)=O)C(=O)N3)NC(=O)[C@H](C(C)C)NC(=O)[C@H](CC(C)C)NC(=O)[C@H](CCCCN)NC(=O)[C@H](CO)NC(=O)[C@H](CO)NC(=O)[C@H](CCCCN)NC2=O,"fold decrease in inhibitory potency on PEG80 linker attachment, NaV1.4","[1]; [K-KIIIA]-[PEG80] compared to AzK-KIIIA, [m3-HwTx-IV]-[PEG80] compared to S-m3-HwTx-IV",1.9 fold
same,"IC50 relative to 1, hNaV1.4",[1]; ↑ fold increase in IC50 relative to ligand 1,45.4× ↑
same,"IC50 relative to 1, hNaV1.7 (fold increase)",[2],1.3× ↑
